Test results from PubChem BioAssay AID1903 (Southern Research Specialized Biocontainment Screening …, 2009).
This is one part of the list. Measured potencies and affinities stand elsewhere. Calls of active or inactive are those of the source. No rule for the calls is given here.

Amino acid sequences for entries named in this document (tags omitted).
UniProt P03070, whole entry, looked up: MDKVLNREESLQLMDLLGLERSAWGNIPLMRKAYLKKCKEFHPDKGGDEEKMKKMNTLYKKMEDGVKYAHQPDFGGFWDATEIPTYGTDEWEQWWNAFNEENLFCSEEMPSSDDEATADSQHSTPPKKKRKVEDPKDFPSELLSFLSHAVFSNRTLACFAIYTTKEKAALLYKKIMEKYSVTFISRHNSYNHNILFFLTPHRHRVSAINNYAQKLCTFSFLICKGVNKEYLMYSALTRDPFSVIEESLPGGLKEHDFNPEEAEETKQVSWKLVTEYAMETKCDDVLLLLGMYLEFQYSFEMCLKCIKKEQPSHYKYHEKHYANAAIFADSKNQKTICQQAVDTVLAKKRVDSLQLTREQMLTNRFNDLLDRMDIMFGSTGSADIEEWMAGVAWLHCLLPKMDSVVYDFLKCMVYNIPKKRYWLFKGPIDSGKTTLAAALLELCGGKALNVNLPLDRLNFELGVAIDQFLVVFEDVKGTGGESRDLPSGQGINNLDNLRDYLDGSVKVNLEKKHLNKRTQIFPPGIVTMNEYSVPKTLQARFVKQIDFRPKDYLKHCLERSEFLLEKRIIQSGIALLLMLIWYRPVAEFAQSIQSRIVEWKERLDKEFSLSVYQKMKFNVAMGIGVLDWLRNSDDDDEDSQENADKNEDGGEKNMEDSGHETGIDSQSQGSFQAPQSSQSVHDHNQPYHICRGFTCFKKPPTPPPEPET

Target: Large T antigen (Simian virus 40) (UniProt P03070)
Test: SV40 large T antigen inhibitors, biochemical (AID 1903)
Settings: SV40 large T antigen ATPase/helicase inhibition assay; at 20 µM; stronger effect = higher value

SMILES	inhibition
O=C(NC1CCS(=O)(=O)C1)NP(=S)(Oc1ccccc1)Oc1ccccc1 (centres undefined)	inactive: -0.43%
CCNC(=S)/N=C(\N)N[N+](=O)[O-]	inactive: 11.9%
CCOC(=O)NC(Sc1ccccc1)C(Cl)(Cl)Cl (centres undefined)	inactive: 6.49%
Cc1ccc(NP(=O)(Oc2cccc(C)c2)Oc2cccc(C)c2)nc1	inactive: 4.44%
c1ccc(-c2nn[nH]n2)c(-c2nn[nH]n2)c1	inactive: 6.14%
Cc1ccc(OP(=O)(Nc2ccccn2)Oc2ccc(C)cc2)cc1	inactive: 13%
CC(=O)NC(SC(=S)N(CC(C)C)CC(C)C)C(Cl)(Cl)Cl (centres undefined)	inactive: 29%
COC(=O)c1cc2c(s1)N=C(c1ccccc1)N(C)P2(=O)N1CCOCC1 (centres undefined)	inactive: -1.42%
CCC(=O)N1C2C3N(C(=O)CC)C1C1N(C(=O)CC)C(C(N1C(=O)CC)N3C(=O)CC)N2C(=O)CC	inactive: 3.63%
O=C(OC1CN2CCC1CC2)c1ccccc1 (centres undefined)	inactive: 3.95%
CN(C)C(=O)Oc1noc2ccccc12	inactive: 9.34%
O=c1c2cc([N+](=O)[O-])ccc2[nH]c2c([N+](=O)[O-])cc([N+](=O)[O-])cc12	inactive: 25.3%
Cc1ccccc1OP(=O)(Nc1ccccn1)Oc1ccccc1C	inactive: 6.18%
CCOc1ccc(C2=NCC(CBr)S2)cc1 (centres undefined)	inactive: 5.97%
O=P1(Nc2nc3ccc(Cl)cc3s2)COc2ccccc2O1 (centres undefined)	inactive: -1.38%
CC(C)(C)C(=O)NC(Sc1ccccc1)C(Cl)(Cl)Cl (centres undefined)	inactive: 3.61%
CC(=O)c1ccc(N2CC2c2ccncc2)cc1 (centres undefined)	inactive: 17.4%

SMILES	inhibition
C[C@@H]1C=CCP(=O)(Oc2ccccc2)O1 (some centres undefined)	inactive: 3.73%
C[C@H]1OP(=O)(Oc2ccccc2)C[C@@H]2O[C@@H]21 (some centres undefined)	inactive: 21%
CC(=O)Nc1ccc([As](=O)(O)O)c(O)c1	inactive: 6.28%
O=P(Nc1nccs1)(c1ccccc1)c1ccccc1	inactive: 12.5%
CC(C)C(=O)NC(Sc1ccccc1)C(Cl)(Cl)Cl (centres undefined)	inactive: 17.1%
c1nnnn1CCn1cnnn1	inactive: 3.1%
CN(C)C1(CNC(=O)c2ccc(Cl)c(S(N)(=O)=O)c2)CCCCC1	inactive: 9.99%
O=P(Nc1ccccn1)(c1ccc(Br)cc1)c1ccc(Br)cc1	inactive: 3.39%
C[C@H]1OP(=O)(Oc2ccccc2)[C@H](O)[C@H](O)[C@H]1N=[N+]=[N-] (some centres undefined)	inactive: 9.03%
O=P(Nc1nc2ccccc2s1)(c1ccccc1)c1ccccc1	inactive: 6.53%
O=[N+]([O-])c1ncn(CCn2cnc([N+](=O)[O-])n2)n1	inactive: 14.9%
CC(=O)NC(SC(=S)N(C)C)C(Cl)(Cl)Cl (centres undefined)	inactive: 3.39%
O=[N+]([O-])c1ccc(O)c(/C=N/Nc2ccc([N+](=O)[O-])cc2[N+](=O)[O-])c1	inactive: 10.5%
O=[As](O)(c1ccccc1)c1ccc(O)cc1	inactive: 0.21%
Nc1ccc([As](=O)(O)c2ccc([N+](=O)[O-])cc2)cc1	inactive: 12.3%
C(Cc1nn[nH]n1)Cc1nn[nH]n1	inactive: 8.99%
O=C(OC1CN2CCC1CC2)c1cccc(Cl)c1 (centres undefined)	inactive: 2.79%
